Anti-infective test results gathered from many reports (values: NIAID ChemDB through PubChem).

All rows: enzyme or target tests; species: HIV-1; target: Integrase

Two numbers with a dash give a range or band. ICn: concentration for n% inhibition. An empty or dashed field is not shown. Neighbouring rows are from separate reports. Fold resistance has wild type as its base. Percent inhibition refers to the dose given; in toxicity tests it is the harm to the cells.

compound	changes	measure	tested at	read by	strain or isolate	conditions	value
O=C(/C=C/c1ccc(O)c(O)c1)Oc1cccc2c(N=C=S)cccc12	C65S	fold resistance	-	3′ processing	-	-	2
CC(C)Nc1cn2ccn(Cc3cccc(Cl)c3)c(=O)c2c(O)c1=O	-	IC50	-	ELISA	-	-	0.01–0.1 µM
CC1(C)CC(=O)c2c(nc(-c3coc4cc(OCc5ccccc5F)ccc4c3=O)n2O)C1	-	IC20	-	3′ processing / radiometric	-	-	180 µM
CC1(C)c2nc(C(=O)NCc3ccc(F)cc3)c(O)c(=O)n2CCN1CC(N)=O	-	IC50	-	ELISA	-	-	<10 µM
Cc1cc(Cl)cc2c1S(=O)(=O)N=C(C(=O)c1ccc3ccccc3c1)S2	INTG-C65S	fold resistance	-	strand transfer	-	-	2.85
O=C(/C=C/c1ccc(O)c(O)c1)OCCc1ccccc1N=C=S	C56S	fold resistance	-	3′ processing	-	-	7.67
Cc1cc(C(=O)N(C)C23CCC(F)(CC2)Cn2c3nc(C(=O)NCc3ccc(F)c(C)c3)c(O)c2=O)no1	-	Ki	-	binding	NL4-3	pseudotyped	0.000002 µM
O=C(C1=NS(=O)(=O)c2ccc(Cl)cc2S1)c1ccc(Cl)c(Cl)c1	INTG-C65S	fold resistance	-	3′ processing	-	-	2.47
CCN(C(=O)C(=O)N(C)C)C1CN(C)CCn2c1nc(C(=O)NCc1ccc(F)cc1)c(O)c2=O	-	IC50	-	ELISA	-	-	<10 µM
CN(C)C(=O)C(=O)N(C)C12CCC(CO)(CC1)Cn1c2nc(C(=O)NCc2ccc(F)cc2F)c(O)c1=O	-	Ki	-	radiometric	-	-	0.0000036 µM
O=C(/C=C/c1ccc(O)c(O)c1)OCCc1ccc(NC(=S)SCCO)cc1	C56S	fold resistance	-	3′ processing	-	-	7.67
CN(C)C(=O)N1CCC2(CC1)OCCCn1c2nc(C(=O)NCc2ccc(F)cc2)c(O)c1=O	-	Ki	-	binding / radiometric	-	-	0.001–0.003 µM
Cc1cc2c(cc1Cl)SC(C(=O)c1ccc(Cl)cc1)=NS2(=O)=O	INTG-C65S	fold resistance	-	3′ processing	-	-	1.1
Cc1ncnn1-c1cc(F)ccc1CNC(=O)c1nc2n(c(=O)c1O)CCCOC21CCN(C(=O)N(C)C)CC1	-	Ki	-	binding / radiometric	-	-	0.003–0.05 µM
O=C1c2c(O)c(=O)c(-c3cnccn3)cn2CCN1Cc1cccc(Cl)c1	-	IC50	-	ELISA	-	-	0.01–0.1 µM
O=C(/C=C/c1ccc(O)c(O)c1)OCCc1ccccc1	C65S	fold resistance	-	3′ processing	-	-	2.2
Cc1cc(CNC(=O)c2nc3n(c(=O)c2O)CC2(c4ncc[nH]4)CCC3(NC(=O)C(=O)N(C)C)CC2)ccc1F	-	Ki	-	radiometric	-	-	0.0000021 µM
CN(C)C(=O)C(=O)N(C)C12CCC(CO)(CC1)Cn1c2nc(C(=O)NCc2ccc(F)cc2)c(O)c1=O	-	Ki	-	binding	NL4-3	pseudotyped	0.0000028 µM
Cc1cc2c(cc1Cl)SC(C(=O)c1ccc(Cl)c(Cl)c1)=NS2(=O)=O	INTG-C65S	fold resistance	-	strand transfer	-	-	1.4
CN(C)CCCNC(=O)c1ccc2nc(-c3ccc4nc(-c5ccc(OCCCCCCCOc6ccc(-c7nc8ccc(-c9nc%10ccc(C(=O)NCCCN(C)C)cc%10[nH]9)cc8[nH]7)cc6)cc5)[nH]c4c3)[nH]c2c1	-	Ki	-	3′ processing	-	-	0.03 µM
Cc1cc(CNC(=O)C23CCC(NC(=O)C(=O)N(C)C)(CC2)c2nc(C(=O)NCc4ccc(F)c(C)c4)c(O)c(=O)n2C3)no1	-	Ki	-	radiometric	-	-	0.0000021 µM
Cn1ccc(CN2CCn3c(nc(C(=O)NCc4ccc(F)cc4)c(O)c3=O)C23CC3)n1	-	IC50	-	ELISA	-	-	<10 µM
Cc1cc(CNC(=O)c2nc3n(c(=O)c2O)CC2(F)CCC3(N(C)C(=O)C3CCOCC3)CC2)ccc1F	-	Ki	-	radiometric	-	-	0.0000141 µM
Cc1ncnn1-c1cc(F)ccc1CNC(=O)c1nc2n(c(=O)c1O)CCOCC21CCN(S(=O)(=O)N(C)C)CC1	-	Ki	-	binding / radiometric	-	-	0.003–0.05 µM
CC(=O)OCC12CCC(NC(=O)C(=O)N(C)C)(CC1)c1nc(C(=O)NCc3ccc(F)c(C)c3)c(O)c(=O)n1C2	-	Ki	-	radiometric	-	-	0.0000021 µM
COC(=O)c1cc(O)c(O)c(O)c1	-	inhibition	250 µM	3′ processing	-	-	51.4%
O=C(Nc1ccccc1)c1cn2ccn(Cc3cccc(Cl)c3)c(=O)c2c(O)c1=O	-	IC50	-	ELISA	-	-	0.01–0.1 µM
Cc1cccc(CNC(=O)c2nc3n(c(=O)c2O)CC2(F)CCC3(NC(=O)C(=O)C(C)C)CC2)c1F	-	Ki	-	radiometric	-	-	0.0000029 µM
CN(C)C(=O)C(=O)N(C)C12CCC(CC#N)(CC1)Cn1c2nc(C(=O)NCc2ccc(F)cc2)c(O)c1=O	-	Ki	-	binding	NL4-3	pseudotyped	0.0000023 µM
Cc1cc(CNC(=O)c2nc3n(c(=O)c2O)CC2(F)CCC3(NC(=O)C(=O)N(C)CC(C)C)CC2)ccc1F	-	Ki	-	radiometric	-	-	0.0000021 µM
Cc1cc(Cl)cc2c1S(=O)(=O)N=C(C(=O)c1ccc(Cl)c(Cl)c1)S2	INTG-C65S	fold resistance	-	3′ processing	-	-	0.22
CN1CCn2c(nc(C(=O)NCc3ccc(F)c(Br)c3)c(O)c2=O)C1(C)C	-	IC50	-	ELISA	-	-	<10 µM
COc1cccc(CN2CCc3cn(C)c(=O)c(O)c3C2=O)c1	-	IC50	-	ELISA	-	-	0.01–0.1 µM
CN(C)C(=O)C(=O)N(C)C12CCC(CO)(CC1)Cn1c2nc(C(=O)NCc2ccc(F)cc2)c(O)c1=O	-	Ki	-	radiometric	-	-	0.0000028 µM
O=C(C1=NS(=O)(=O)c2ccc(Cl)cc2S1)c1ccc2ccccc2c1	INTG-C65S	fold resistance	-	3′ processing	-	-	8.13
CCOC(=O)c1c(C)nc(-c2coc3cc(OCc4ccccc4F)ccc3c2=O)n1O	-	IC20	-	3′ processing / radiometric	-	-	100 µM
CN(C)S(=O)(=O)N1CCC2(CC1)COCCn1c2nc(C(=O)NCc2ccc(F)cc2)c(O)c1=O	-	Ki	-	binding / radiometric	-	-	0.003–0.05 µM

The last 4 rows once more:

compound,changes,measure,tested at,read by,strain or isolate,conditions,value
CN(C)C(=O)C(=O)N(C)C12CCC(CO)(CC1)Cn1c2nc(C(=O)NCc2ccc(F)cc2)c(O)c1=O,-,Ki,-,radiometric,-,-,0.0000028 µM
O=C(C1=NS(=O)(=O)c2ccc(Cl)cc2S1)c1ccc2ccccc2c1,INTG-C65S,fold resistance,-,3′ processing,-,-,8.13
CCOC(=O)c1c(C)nc(-c2coc3cc(OCc4ccccc4F)ccc3c2=O)n1O,-,IC20,-,3′ processing / radiometric,-,-,100 µM
CN(C)S(=O)(=O)N1CCC2(CC1)COCCn1c2nc(C(=O)NCc2ccc(F)cc2)c(O)c1=O,-,Ki,-,binding / radiometric,-,-,0.003–0.05 µM